{
  "source": "PubChem BioAssay AID651602",
  "about": "(The Scripps Research Institute Molecular Screening Center, 2012)",
  "note": "Only a part is listed here, and it is no random draw. Calls of active or inactive are those of the source. Cut-off read from the data, not from the text of the source: active = inhibition above about 11%; inactive = the rest.",
  "data": [
    {"assay": "growth loss of phage-infected E. coli, primary screen, RecBCD inhibitor project, absorbance, with phage, HTS (AID 651602)", "conditions": "at 11.9 µM, stronger effect = higher value", "values": [
      {"smiles": "Cc1ccccc1NC1(C#N)CCN(Cc2ccccc2)CC1", "inhibition": "inactive: 1.95%"},
      {"smiles": "COc1ccc(C(c2nnnn2C2CCCCC2)N2CCC(n3c(=O)[nH]c4ccccc43)CC2)cc1", "note": "(stereo not given)", "inhibition": "inactive: 0.39%"},
      {"smiles": "CCN1CCC(Nc2cccc(F)c2)CC1", "inhibition": "inactive: -1.4%"},
      {"smiles": "CC(C)(C)n1nnnc1C(c1ccnc2ccccc12)N1CCC(n2c(=O)[nH]c3ccccc32)CC1", "note": "(stereo not given)", "inhibition": "inactive: 1.87%"},
      {"smiles": "O=C(NCC1(N2CCCCC2)CCCCC1)c1ccco1", "inhibition": "inactive: -0.62%"},
      {"smiles": "CN(C)c1ccc(C(=O)NCC2(N3CCCCC3)CCCCC2)cc1", "inhibition": "inactive: 1.38%"},
      {"smiles": "Cn1c(=O)[nH]cc(N(CCCl)CCCl)c1=O", "inhibition": "inactive: 4.34%"},
      {"smiles": "COc1cccc(C(c2nnnn2C2CCCCC2)N2CCC(n3c(=O)[nH]c4ccccc43)CC2)c1OC", "note": "(stereo not given)", "inhibition": "inactive: 2.15%"},
      {"smiles": "CC(=O)N(c1ccccc1)C1CCNCC1", "inhibition": "inactive: 3.19%"},
      {"smiles": "CCC(c1nnnn1C1CCCCC1)N1CCC(n2c(=O)[nH]c3ccccc32)CC1", "note": "(stereo not given)", "inhibition": "inactive: -0.39%"},
      {"smiles": "COc1cc(OC)cc(C(=O)NCC2(N3CCCCC3)CCCCC2)c1", "inhibition": "inactive: 3.94%"},
      {"smiles": "O=c1[nH]c2ccccc2n1C1CCN(C(c2ccnc3ccccc23)c2nnnn2C2CCCCC2)CC1", "note": "(stereo not given)", "inhibition": "inactive: 0.31%"},
      {"smiles": "Cc1ccc(C(=O)NCC2(N3CCCCC3)CCCCC2)o1", "inhibition": "inactive: 3.34%"},
      {"smiles": "Fc1ccccc1NC1CCN(Cc2ccccc2)CC1", "inhibition": "inactive: 0.99%"},
      {"smiles": "Cc1ccc(NC2(C#N)CCN(Cc3ccccc3)CC2)cc1", "inhibition": "inactive: 2.33%"},
      {"smiles": "COc1cccc(C(=O)N(c2cc(C)cc(C)c2)C2CCN(C(=O)OC(C)(C)C)CC2)c1", "inhibition": "inactive: 0.64%"},
      {"smiles": "COc1cc(OC)cc(C(=O)NCC2(N3CCOCC3)CCCCC2)c1", "inhibition": "inactive: 2.62%"},
      {"smiles": "COc1cccc(C(c2nnnn2C2CCCC2)N2CCC(n3c(=O)[nH]c4ccccc43)CC2)c1OC", "note": "(stereo not given)", "inhibition": "inactive: 1.03%"},
      {"smiles": "CCC(CO)(C(=O)OC1CN2CCC1CC2)c1ccccc1", "note": "(stereo not given)", "inhibition": "inactive: 2.24%"},
      {"smiles": "CN1CCC(Nc2ccc(Cl)cc2)CC1", "inhibition": "inactive: 1.48%"},
      {"smiles": "CCOc1ncccc1C(=O)NCC1(N2CCOCC2)CCCCC1", "inhibition": "inactive: -0.78%"},
      {"smiles": "CN1CCC(Nc2ccc(F)c(Cl)c2)CC1", "inhibition": "inactive: -1.48%"},
      {"smiles": "CC(C)(C)OC(=O)N1CCC(Nc2ccccc2)CC1", "inhibition": "inactive: 2.85%"},
      {"smiles": "NN(c1ccccc1)C1CCN(CCc2ccccc2)CC1", "inhibition": "inactive: 5.03%"},
      {"smiles": "O=C(O)C1(Nc2ccccc2)CCN(Cc2ccccc2)CC1", "inhibition": "inactive: 1.74%"},
      {"smiles": "O=c1[nH]c2ccccc2n1C1CCN(C(c2cc3ccccc3o2)c2nnnn2C2CCCC2)CC1", "note": "(stereo not given)", "inhibition": "inactive: 0.78%"},
      {"smiles": "CCCOc1ccc(C(=O)NCC2(N(C)C)CCCCC2)cc1", "inhibition": "inactive: 1.51%"},
      {"smiles": "CCOC(=O)N1CCC(Nc2ccc(C)cc2)CC1", "inhibition": "inactive: -0.23%"},
      {"smiles": "COc1cccc(C(c2nnnn2C(C)(C)C)N2CCC(n3c(=O)[nH]c4ccccc43)CC2)c1OC", "note": "(stereo not given)", "inhibition": "inactive: 1.11%"},
      {"smiles": "N/C(=N\\O)c1c(N)no[n+]1[O-]", "inhibition": "inactive: 2.06%"},
      {"smiles": "O=C(OC1CN2CCC1CC2)C1c2ccccc2C=Cc2ccccc21", "note": "(stereo not given)", "inhibition": "inactive: 4%"},
      {"smiles": "O=c1[nH]c2ccccc2n1C1CCN(C(c2cccs2)c2nnnn2C2CCCC2)CC1", "note": "(stereo not given)", "inhibition": "inactive: 0.64%"},
      {"smiles": "CCCCn1nnnc1C(c1cccc(OC)c1OC)N1CCC(n2c(=O)[nH]c3ccccc32)CC1", "note": "(stereo not given)", "inhibition": "inactive: 2.74%"},
      {"smiles": "CCCCn1nnnc1C(c1ccccc1)N1CCC(n2c(=O)[nH]c3ccccc32)CC1", "note": "(stereo not given)", "inhibition": "inactive: -0.23%"},
      {"smiles": "COc1cc(C(=O)NCC2(N3CCOCC3)CCCCC2)cc(OC)c1C", "inhibition": "inactive: 8.33%"},
      {"smiles": "O=C(NCC1(N2CCOCC2)CCCCC1)c1cc(Br)ccc1Cl", "inhibition": "inactive: 2.11%"},
      {"smiles": "O=c1[nH]c2ccccc2n1C1CCN(C(c2cccs2)c2nnnn2C2CCCCC2)CC1", "note": "(stereo not given)", "inhibition": "inactive: 0.08%"},
      {"smiles": "COc1ccc(C(=O)NCC2(N3CCOCC3)CCCCC2)cc1OC", "inhibition": "inactive: 0.84%"},
      {"smiles": "O=c1[nH]c2ccccc2n1C1CCN(C(c2ccnc3ccccc23)c2nnnn2C2CCCC2)CC1", "note": "(stereo not given)", "inhibition": "inactive: 2.07%"},
      {"smiles": "CN(C)C1(CNC(=O)c2cccc(C#N)c2)CCCCC1", "inhibition": "inactive: 3.34%"},
      {"smiles": "C/C(N)=N\\P(=O)(Oc1ccccc1)Oc1ccccc1", "inhibition": "inactive: 2.83%"},
      {"smiles": "c1ccc(CN2CCC(Nc3ccccc3)CC2)cc1", "inhibition": "inactive: 4.14%"},
      {"smiles": "O=c1[nH]c2ccccc2n1C1CCN(C(c2ccccc2)c2nnnn2C2CCCC2)CC1", "note": "(stereo not given)", "inhibition": "inactive: 2.44%"},
      {"smiles": "CCCN1CCC(Nc2cc(OC)cc(OC)c2)CC1", "inhibition": "inactive: -2.87%"},
      {"smiles": "Cc1cc(N(CCCl)CCCl)ccc1C=O", "inhibition": "inactive: -0.08%"},
      {"smiles": "CC(C)(C)n1nnnc1C(c1cccc2ccccc12)N1CCC(n2c(=O)[nH]c3ccccc32)CC1", "note": "(stereo not given)", "inhibition": "inactive: 3.02%"},
      {"smiles": "N#Cc1ccc(C(=O)NCC2(N3CCCCC3)CCCCC2)cc1", "inhibition": "inactive: -1.62%"},
      {"smiles": "CC(C)(C)OC(=O)N1CCC(N(C(=O)c2ccccc2)c2ccc(Cl)cc2)CC1", "inhibition": "inactive: -3.02%"},
      {"smiles": "O=C(NCC1(N2CCCCC2)CCCCC1)c1cccc(C(F)(F)F)c1", "inhibition": "inactive: 3.14%"},
      {"smiles": "O=C(NCC1(N2CCOCC2)CCCCC1)c1cc(=O)[nH]c2ccccc12", "inhibition": "inactive: 2.14%"},
      {"smiles": "COc1cc(C(=O)NCC2(N3CCCCC3)CCCCC2)ccc1OC(F)F", "inhibition": "inactive: -0.38%"},
      {"smiles": "COc1ccc(NC2CCN(C(=O)OC(C)(C)C)CC2)cc1", "inhibition": "inactive: 2.89%"},
      {"smiles": "CC(C)c1ccc(C(=O)NCC2(N3CCOCC3)CCCCC2)cc1", "inhibition": "inactive: -1.31%"},
      {"smiles": "CN1CCN(CCOC(=O)C(O)(c2ccccc2)c2ccccc2)CC1", "inhibition": "inactive: 3.91%"},
      {"smiles": "CCCCn1nnnc1C(c1cccc2ccccc12)N1CCC(n2c(=O)[nH]c3ccccc32)CC1", "note": "(stereo not given)", "inhibition": "inactive: -0.62%"},
      {"smiles": "CC(C)(C)n1nnnc1C(c1ccccc1OC(F)(F)F)N1CCC(n2c(=O)[nH]c3ccccc32)CC1", "note": "(stereo not given)", "inhibition": "inactive: 1.87%"},
      {"smiles": "O=C(NCC1(N2CCCCC2)CCCCC1)c1ccc(OC(F)F)cc1", "inhibition": "inactive: 0.15%"},
      {"smiles": "CCN1CCC(Nc2ccc(Cl)cc2)CC1", "inhibition": "inactive: -2.25%"},
      {"smiles": "O=c1[nH]c2ccccc2n1C1CCN(C(c2ccccc2OC(F)(F)F)c2nnnn2C2CCCC2)CC1", "note": "(stereo not given)", "inhibition": "inactive: 0.24%"},
      {"smiles": "N#CC1(Nc2ccccc2)CCN(CCc2ccccc2)CC1", "inhibition": "inactive: 1.25%"}
    ]}
  ]
}
